Test results published in article PMC8447191 (Bioconjugate Chemistry, 2021).
Strings that start with PEPTIDE1 are HELM notation: dots part the residues, brackets hold end groups and non-standard residues.

Test: general procedure: Fmoc solid-phase peptide synthesis; NovaSyn TGR resin (0.22 mmol/g; 0.19 mmol/g for C-PAs); HATU/DIEA (amino acids); PyBOP/HOBt/DIEA (PEG, alkyl moieties, Cys)
Settings: whole synthesis; for crude yield / isolated yield: scale of the general procedure 1.5 g resin, 0.22 mmol/g; for isolated yield: synthesis + purification

Substance	crude mass [g]	isolated mass [g]	crude yield (cleavage yield) [%]	isolated yield [%]	crude yield [%]	crude yield (yield (synthesis)) [%]
PEPTIDE1{[diC18NSuc].[PEG3].W.I.L.E.Y.L.W.K.V.P.F.D.F.W.R.G.V.I.[am]}$$$$V2.0	0.042	0.010	68	16	–	–
PEPTIDE1{W.I.L.E.Y.L.W.K.V.P.F.D.F.W.R.G.V.I.K.[am]}|PEPTIDE2{[Cys(CH2COOChol)].[PEG27]}$PEPTIDE1,PEPTIDE2,19:R3-2:R2$$$V2.0	0.012	–	–	–	9.2	–
PEPTIDE1{[C18NHSuc].[PEG3].W.I.L.E.Y.L.W.K.V.P.F.D.F.W.R.G.V.I.[am]}$$$$V2.0	0.049	0.021	–	27	–	63
PEPTIDE1{[Cys(CH2COOChol)].[PEG3].W.I.L.E.Y.L.W.K.V.P.F.D.F.W.R.G.V.I.[am]}$$$$V2.0	0.018	–	–	–	28	–
Cys-PEG27-E1P47	–	0.0112	–	10.6	–	–
Cys-PEG27-E1P47 (K-PAchol precursor)	–	0.0094	–	9.6	–	–
PEPTIDE1{W.I.L.E.Y.L.W.K.V.P.F.D.F.W.R.G.V.I.[am]}|PEPTIDE2{[Cys(CH2COOChol)].[PEG27]}$PEPTIDE1,PEPTIDE2,8:R3-2:R2$$$V2.0	–	–	–	–	9.2	–
PEPTIDE1{[Cys(CH2COOChol)].[PEG27].W.I.L.E.Y.L.W.K.V.P.F.D.F.W.R.G.V.I.[am]}$$$$V2.0	0.011	–	–	–	9.6	–
Cys-PEG3-E1P47	–	0.018	–	35	–	–
PEPTIDE1{W.I.L.E.Y.L.W.K.V.P.F.D.F.W.R.G.V.I.[am]}|PEPTIDE2{[diC18NSuc].[PEG27]}$PEPTIDE1,PEPTIDE2,8:R3-2:R2$$$V2.0	–	0.027	–	24	–	–
Cys-PEG27-E1P47 (C-PAchol precursor)	–	0.011	–	10	–	–
